# Measurements reported in PubChem BioAssay AID624099 (ICCB-Longwood, 2012)
# Assay: 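Knock-downs relieving repression by E2 of an HPV18 LCR luciferase reporter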 (primary screen)
# Cell system: human C33A cervical carcinoma cells (HPV-negative) stably expressing BPV1 E2 and an HPV18 LCR luciferase reporter
# Reagent: siRNA pool against human genes, 40 nM
# Time to read-out: 72 h
# Detection: 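Per-well luciferase luminescence, z-scored on each plate against the plate mean and SD with control wells left out, then averaged across three replicate plates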
# Reading the numbers: mean z-score and z-score: higher = stronger reporter signal, weaker E2 silencing
# Active means: 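Mean z ≥ 2 together with z ≥ 2 in two or more of the three replicates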
# Shown is one part, drawn at random, of about 21,000 reagents. 497 of all reagents (2.4%) were called active. 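Higher z means weaker E2 silencing; only reporter increases were scored, and knock-downs that hurt cell survival may mask genuine repressor factors.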 Unmarked entries are inactive. The numbers tell different reagents against one gene apart. Reagent sequences are not shown.
gene symbol,reagent,mean z-score,"z-score, replicate A","z-score, replicate B","z-score, replicate C"
ARL8A (GeneID 127829),1,-1.06,-0.88,-1.22,-1.08
NLRC5 (GeneID 84166),1,-0.68,-0.82,-0.81,-0.41
NAV3 (GeneID 89795),1,0.59,0.39,0.72,0.64
HMOX1 (GeneID 3162),1,-0.19,-0.5,-0.29,0.21
NHERF1 (GeneID 9368),1,-1.31,-1.33,-1.59,-1.02
SLC29A2 (GeneID 3177),1,-0.18,-0.39,-0.16,0.01
SREK1 (GeneID 140890),1,-1.56,-1.71,-1.86,-1.11
GNAS (GeneID 2778),1,0.54,0.58,0.69,0.34
CMTM5 (GeneID 116173),1,-2.34,-2.28,-2.43,-2.33
ATP6AP1L (GeneID 92270),1,-0.57,-0.64,-0.65,-0.41
BRICD5 (GeneID 283870),1,2.17 (active),1.6,2.42,2.48
COMMD6 (GeneID 170622),1,-0.66,-0.26,-1.09,-0.61
BAIAP2 (GeneID 10458),1,1.21,1.19,1.32,1.11
NOTCH2NLA (GeneID 388677),1,0.79,0.87,0.48,1.02
PHF8 (GeneID 23133),1,-0.58,0.01,-0.8,-0.96
DGKH (GeneID 160851),1,0.99,1.05,1.03,0.89
NKX2-5 (GeneID 1482),1,0.42,0.33,0.5,0.42
SUGP2 (GeneID 10147),1,1.39,1.29,1.57,1.3
FBXO4 (GeneID 26272),1,1.67,1.62,1.75,1.63
CHSY3 (GeneID 337876),1,-0.15,-0.41,0.08,-0.12
LRTM3 (GeneID 643677),1,-0.37,-0.35,-0.35,-0.42
IQSEC3 (GeneID 440073),1,-0.03,0.1,0.01,-0.19
HLA-DMA (GeneID 3108),1,0.07,0.03,-0.02,0.19
TMEM177 (GeneID 80775),1,0.14,0.28,0.13,0.01
LINC01579 (GeneID 283682),1,-0.1,-0.51,-0.02,0.24
C6orf47 (GeneID 57827),1,-0.49,-0.34,-0.89,-0.24
HINFP (GeneID 25988),1,-1.23,-0.98,-1.24,-1.47
GOLGA7B (GeneID 401647),1,-1.59,-1.32,-1.65,-1.8
TM9SF3 (GeneID 56889),1,0.48,0.5,0.48,0.46
MED31 (GeneID 51003),1,-0.54,-0.96,-0.06,-0.6
CRNKL1 (GeneID 51340),1,1.78,,1.89,1.66
PPP1R1C (GeneID 151242),1,2.56 (active),2.58,2.83,2.28
MET (GeneID 4233),1,-0.47,-0.85,-0.14,-0.41
MFN1 (GeneID 55669),1,-0.22,0.09,-0.12,-0.64
APP (GeneID 351),1,-0.07,-0.04,-0.07,-0.09
DDB1 (GeneID 1642),1,0.5,0.77,0.33,0.39
PLEKHA8P1 (GeneID 51054),1,1.14,1.71,0.71,1.01
BRF2 (GeneID 55290),1,0.39,0.72,0.12,0.34
SNRNP25 (GeneID 79622),1,-0.67,-0.54,-0.72,-0.77
ZBTB48 (GeneID 3104),1,0.94,1.03,0.9,0.88
SYNE1 (GeneID 23345),1,0.45,0.27,0.32,0.75
LOC389232 (retired record) (GeneID 389232),1,0.93,0.94,0.75,1.09
MAMSTR (GeneID 284358),1,0.64,0.94,0.75,0.24
CRCP (GeneID 27297),1,1.06,0.6,0.8,1.77
CLDN4 (GeneID 1364),1,-0.77,-0.39,-0.66,-1.28
KCNIP1 (GeneID 30820),1,-0.45,-0.4,-0.56,-0.4
PROC (GeneID 5624),1,0.66,0.47,0.9,0.62
MYO6 (GeneID 4646),1,0.33,0.25,0.5,0.25
SPA17 (GeneID 53340),1,-0.52,-0.63,-0.68,-0.24
AMELX (GeneID 265),1,-1.17,-1.12,-1.21,-1.16
LOC392145 (GeneID 392145),1,0.17,0.14,0.25,0.13
LOC392145 (GeneID 392145),2,0.1,-0.26,0.26,0.29
TNFRSF10A-DT (GeneID 389641),1,0.59,0.66,0.45,0.67
TTLL10 (GeneID 254173),1,0.95,0.87,0.97,1
TM9SF2 (GeneID 9375),1,-0.85,-0.64,-0.96,-0.94
SIAE (GeneID 54414),1,-0.4,-0.29,-0.31,-0.6
EIF5A2 (GeneID 56648),1,-0.95,-0.99,-1.04,-0.84

Copied from above for reference:
gene symbol,reagent,mean z-score,"z-score, replicate A","z-score, replicate B","z-score, replicate C"
AMELX (GeneID 265),1,-1.17,-1.12,-1.21,-1.16
LOC392145 (GeneID 392145),1,0.17,0.14,0.25,0.13
LOC392145 (GeneID 392145),2,0.1,-0.26,0.26,0.29
TNFRSF10A-DT (GeneID 389641),1,0.59,0.66,0.45,0.67
